A mixed list of measured activities; the numbers were collected in NIAID ChemDB.

Rows are shuffled and stem from different studies. CCn: concentration that lowers growth or viability of the cells by n%. Inhibition is in % at the dose shown (toxicity tests: loss of growth or viability). ICn is the concentration giving n% inhibition. ECn is the concentration giving n% inhibition of infection, replication or growth.

Nc1nc(=O)n([C@@H]2C=C(CO)[C@@H](O)[C@H]2O)cc1F ; cells: MK2 ; test: toxicity ; endpoint: CC50 ; result: 70 µg/mL
O=C(NC1CCN(C(=O)Nc2ccccc2C(=O)O)C1)c1ccc2c(c1)nc(-c1ccoc1)n2C1CCCCC1 ; target: RNA-dependent RNA polymerase ; organism: Poliovirus ; test: target ; endpoint: IC50 ; result: >25 µM
CCCCCCCCCCCCCCCCCC(=O)OC[C@@H](COP(=O)(O)OCCNCCO[C@@]1(C(=O)O)O[C@@H]([C@H](O)[C@H](O)CO)[C@H](NC(C)=O)[C@@H](O)[C@H]1F)OC(=O)CCCCCCCCCCCCCCCCC ; target: Sialidase ; organism: Influenza A virus ; strain: H10N1 A/DUCK/33/3/76 ; test: target ; endpoint: IC50 ; result: 500 µM
O=C(O)c1ccc2c(c1)nc(-c1ccc3c(c1)OCCO3)n2C1CCCCC1 ; target: RNA-dependent RNA polymerase ; organism: Poliovirus ; test: target ; endpoint: IC50 ; result: >25 µM
NC(=O)c1c[se]c([C@@H]2O[C@H](CO)[C@@H](O)[C@H]2O)n1 ; organism: Venezuelan equine encephalitis virus ; cells: VERO 76 ; strain: Trinidad donkey ; test: culture ; endpoint: EC50 ; result: 0.5 µg/mL
CCCCCCCCCCCCCCCCCC(=O)OC[C@@H](COP(=O)(O)OCCNCCO[C@@]1(C(=O)O)O[C@@H]([C@H](O)[C@H](O)CO)[C@H](NC(C)=O)[C@@H](O)[C@H]1F)OC(=O)CCCCCCCCCCCCCCCCC ; target: Sialidase ; organism: Influenza A virus ; strain: H2N2 A/DUCK/HK/273/78 ; test: target ; endpoint: IC50 ; result: 125 µM
NC(=O)[C@H](Cc1c[nH]c2ccc(N)cc12)NC(=O)c1ccc2c(c1)nc(-c1ccoc1)n2C1CCCCC1 ; target: RNA-dependent RNA polymerase ; organism: Poliovirus ; test: target ; endpoint: IC50 ; result: >25 µM
Nc1ccn(C[C@H]2COP(=O)(O)CO2)c(=O)n1 ; organism: Variola virus ; cells: VERO ; strain: Isolate V73-225 ; test: culture ; endpoint: EC50 ; result: 9 µg/mL
CCCCCCCCCCCCC/C=C/[C@@H](O)[C@H](CO[C@@H]1O[C@H](CO)[C@H](O)[C@H](OS(=O)(=O)O)[C@H]1O)NC(=O)CCCCCCCCCCCCCCCCCCCCCCC ; target: Sialidase ; organism: Influenza A virus ; strain: H3N8 A/duck/Hokkaido/8/80 ; tested at: 200 µM ; test: target ; endpoint: inhibition ; result: 39.2%
N=c1c2ncn([C@@H]3O[C@H](CO)[C@@H](O)[C@H]3O)c2ncn1OCc1cc(F)cc(F)c1 ; organism: Variola virus ; cells: LLC-MK2 ; strain: Isolate Yamada ; test: culture ; endpoint: EC50 ; result: >100 µg/mL
CN(C(=O)Cc1ccc2c(c1)nc(-c1ccoc1)n2C1CCCCC1)[C@H](Cc1ccc(O)cc1)C(=O)O ; target: RNA-dependent RNA polymerase ; organism: Poliovirus ; test: target ; endpoint: IC50 ; result: >25 µM
NC(=O)c1csc([C@@H]2O[C@H](CO)[C@@H](O)[C@H]2O)n1 ; organism: Variola virus ; cells: VERO ; strain: Isolate Brazil Garcia ; test: culture ; endpoint: EC50 ; result: 19.8 µg/mL
COc1c(C)c2c(c(O)c1C/C=C(\C)CCC(=O)O)C(=O)OC2 ; organism: Camelpox virus ; cells: 3T3 ; test: culture ; endpoint: EC50 ; result: 0.3 µM
Nc1ccn(C[C@@H](CO)OCP(=O)(O)O)c(=O)n1 ; organism: Variola virus ; cells: VERO ; strain: Isolate Juba ; test: culture ; endpoint: EC50 ; result: 14 µg/mL
COc1cccc(-c2nc3cc(C(=O)N[C@H](C(=O)O)c4c[nH]c5ccc(O)cc45)ccc3n2C2CCCCC2)c1O ; target: RNA-dependent RNA polymerase ; organism: Poliovirus ; test: target ; endpoint: IC50 ; result: >25 µM
O=c1[nH]cnc2c1ncn2[C@@H]1C=C(CO)[C@@H](O)[C@H]1O ; cells: MK2 ; test: toxicity ; endpoint: CC50 ; result: >100 µg/mL
O=c1cnn([C@@H]2O[C@H](CO)[C@@H](O)[C@H]2O)c(=O)[nH]1 ; organism: Monkeypox virus ; cells: VERO 76 ; test: culture ; endpoint: EC50 ; result: 4 µM
CC(=O)Nc1ccc(C[C@H](NC(=O)c2ccc3c(c2)nc(-c2ccoc2)n3C2CCCCC2)C(=O)O)cc1 ; target: RNA-dependent RNA polymerase ; organism: Poliovirus ; test: target ; endpoint: IC50 ; result: >25 µM

Repeating the final 2 entries:

O=c1cnn([C@@H]2O[C@H](CO)[C@@H](O)[C@H]2O)c(=O)[nH]1 ; organism: Monkeypox virus ; cells: VERO 76 ; test: culture ; endpoint: EC50 ; result: 4 µM
CC(=O)Nc1ccc(C[C@H](NC(=O)c2ccc3c(c2)nc(-c2ccoc2)n3C2CCCCC2)C(=O)O)cc1 ; target: RNA-dependent RNA polymerase ; organism: Poliovirus ; test: target ; endpoint: IC50 ; result: >25 µM